# Read-outs that look alike come from different tables or passages of the source.
# Legend:
# SARS-CoV-2 [1] = test: SARS-CoV-2 replication inhibition in Vero E6 cells (PFU titration); details: Vero E6, ratio of CC50 and EC50, 24 hpi
# SARS-CoV-2 [2] = assay type: cell-based; details: for SI 24 h: Calu-3, ratio of CC50 and EC50, 24 hpi; for SI 48 h: Calu-3, ratio of CC50 and EC50, 48 hpi
SMILES,SI 24 h (SARS-CoV-2 [1]),SI 24 h (SARS-CoV-2 [2]),SI 48 h (SARS-CoV-2 [2])
Cc1cn([C@H]2C[C@H](N)[C@@H](C[Se]c3ccccc3)O2)c(=O)[nH]c1=O [R3a],88.9,31.4,54.5
Cc1ccc([Se]C[C@H]2O[C@@H](n3cc(C)c(=O)[nH]c3=O)C[C@@H]2N)cc1 [R3b],67.3,52.4,150
COc1ccc([Se]C[C@H]2O[C@@H](n3cc(C)c(=O)[nH]c3=O)C[C@@H]2N)cc1 [R3c],60.4,–,58.3
Cc1cn([C@H]2C[C@H](N)[C@@H](C[Se]c3ccc(Cl)cc3)O2)c(=O)[nH]c1=O [R3d],80.3,24.1,92.2
Cc1cn([C@H]2C[C@H](N)[C@@H](C[Se]c3cccc4ccccc34)O2)c(=O)[nH]c1=O [R3e],101,81.4,67.7
Cc1cn([C@H]2C[C@H](N)[C@@H](C[Te]c3ccccc3)O2)c(=O)[nH]c1=O [R3f],19.5,23.2,9.18
Cc1ccc([Te]C[C@H]2O[C@@H](n3cc(C)c(=O)[nH]c3=O)C[C@@H]2N)cc1 [R3n],9.84,58.2,26.7
COc1ccc([Te]C[C@H]2O[C@@H](n3cc(C)c(=O)[nH]c3=O)C[C@@H]2N)cc1 [R3o],8.06,4.97,15.5
Cc1cn([C@H]2C[C@H](N)[C@@H](C[Te]c3ccc(Cl)cc3)O2)c(=O)[nH]c1=O [R3p],10.2,8.14,2.78
Cc1cn([C@H]2C[C@H](N)[C@@H](C[Te]c3cccc4ccccc34)O2)c(=O)[nH]c1=O [R3q],7.98,16.9,39.8
